Measurements reported in PubChem BioAssay AID624099 (ICCB-Longwood, 2012)
The whole screen tested about 21,000 reagents; this is a part drawn at random. Over the whole deposit, 497 (2.4%) got an active call. 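Higher z means weaker E2 silencing; only reporter increases were scored, and knock-downs that hurt cell survival may mask genuine repressor factors.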

Aim: 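Knock-downs relieving repression by E2 of an HPV18 LCR luciferase reporter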 (primary screen)
Cells: human C33A cervical carcinoma cells (HPV-negative) stably expressing BPV1 E2 and an HPV18 LCR luciferase reporter
Knock-down reagent: siRNA pool against human genes, 40 nM
Duration: 72 h
Read-out: 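HPV18 LCR reporter light per well, converted to plate-wise z-scores that exclude control wells, and averaged over triplicate plates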
Reading the numbers: mean z-score and z-score: higher = stronger reporter signal, weaker E2 silencing
Call rule: 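Hit if mean z-score reaches 2 and two or more of three replicate z-scores also reach 2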

PLCE1 gave mean z-score 2.26; z-score, replicate A = 2.47; z-score, replicate B = 2.29; z-score, replicate C = 2.02; active. After knock-down of TTLL12, the record shows mean z-score -0.84; z-score, replicate A = -0.83; z-score, replicate B = -0.88; z-score, replicate C = -0.79; inactive. Knock-down of LRRC10 came out at: mean z-score -0.61; z-score, replicate A = -0.58; z-score, replicate B = -0.37; z-score, replicate C = -0.89; inactive. After knock-down of GPAM, the screen gave mean z-score 0.19; z-score, replicate A = 0.6; z-score, replicate B = 0.34; z-score, replicate C = -0.38; inactive. For CREB1, the values are mean z-score -1.08; z-score, replicate A = -1.04; z-score, replicate B = -1.48; z-score, replicate C = -0.72; inactive. After knock-down of TBX10, the record shows mean z-score 2.39; z-score, replicate A = 2.37; z-score, replicate B = 2.65; z-score, replicate C = 2.16; active.

MTRR gave mean z-score 0.15; z-score, replicate A = -0.05; z-score, replicate B = -0.08; z-score, replicate C = 0.59; inactive. With knock-down of FLJ46489 (retired record) the results were mean z-score -0.3; z-score, replicate A = -0.71; z-score, replicate B = -0.38; z-score, replicate C = 0.18; inactive. Silencing of PLIN4 gave: mean z-score 0.77; z-score, replicate A = 0.96; z-score, replicate B = 0.53; z-score, replicate C = 0.83; inactive. With knock-down of CRACR2A, the record shows mean z-score 0.89; z-score, replicate A = 0.88; z-score, replicate B = 0.87; z-score, replicate C = 0.93; inactive. EGF gave mean z-score 0.32; z-score, replicate A = 0.19; z-score, replicate B = 0.38; z-score, replicate C = 0.39; inactive. EHBP1L1 gave mean z-score -4.93; z-score, replicate A = -4.84; z-score, replicate B = -5.34; z-score, replicate C = -4.62; inactive.
